## Potato spindle tuber viroid, loop 6: variant abundance in plants

Data from the supplement of Wu et al. 2024, doi:10.1371/journal.ppat.1012142.

The pool varies loop 6 of the PSTVd intermediate strain in the pattern UNNNCGNNNG; wild type is UGACCGCGAG (upper and lower strand joined, each 5' to 3', the first 5 letters being the upper strand, closing pairs included).

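Three N. benthamiana plants were inoculated with the whole mutant pool. Progeny were sequenced from the inoculated region (day 5), the margin of the inoculated leaf (day 10) and systemic leaves (day 12).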

Values are reads per thousand in the sample; higher means more abundant, 0 means not found. Each site shows the three plants. "Pool" is the share in the plasmid pool used as inoculum, on the same scale. The inoculated region was read from the minus strand, the other sites from the plus strand. IR is the inoculated region, LM the leaf margin, Sys the systemic leaves. Wild type was 20.7 per thousand in the pool and the most common sequence in every sample (inoculated region 195, 198, 203; leaf margin 629, 591, 734; systemic leaves 942, 870, 868). With 36,220-57,551 reads a sample, very low values are single reads. The authors trace changes outside the varied positions to PCR and sequencing errors or to mutation in the plant; presence does not show that a variant is infectious alone.

sequence,pool,IR,LM,Sys
UUCGCUUAUG,0.0131,0 0 0,0 0 0,0 0 0
UUCUCGAAAG,0.144,0.122 0.0539 0.0553,0.0276 0 0.0232,0 0 0
UUCUCGAACG,0.314,0.122 0.0359 0.0922,0 0 0.0232,0 0 0
UUCUCGAAGG,0.131,0.122 0.0359 0.0738,0 0 0,0 0 0
UUCUCGAAUG,0.549,0.122 0.0539 0.148,0 0 0,0 0 0
UUCUCGACAG,0.275,0.156 0.0719 0.0553,0.0276 0 0,0 0 0
UUCUCGACCG,0.170,0.0174 0.0359 0.0553,0 0 0,0 0 0
UUCUCGACGG,0.353,0.0521 0.108 0.129,0 0 0.0232,0 0 0
UUCUCGACUG,0.392,0.0695 0.0898 0.0922,0 0 0,0 0 0
UUCUCGAGAG,0.366,0.139 0.0719 0.129,0 0 0,0 0 0
UUCUCGAGCG,0.588,0.139 0.0898 0.0922,0 0 0,0 0 0
UUCUCGAGGG,0.209,0.0869 0.0719 0.0922,0 0 0.0232,0 0 0
UUCUCGAGUG,0.261,0.122 0.144 0.111,0 0 0.0232,0 0 0
UUCUCGAUAG,0.431,0.243 0.0898 0.148,0 0 0.255,0 0 0
UUCUCGAUCG,0.340,0.0695 0.144 0.0184,0.0276 0 0,0 0 0
UUCUCGAUGG,0.392,0.0869 0.0539 0.111,0 0 0.0232,0 0.0202 0
UUCUCGAUUG,0.510,0.156 0.0180 0.0738,0 0 0.0232,0 0 0
UUCUCGCAAG,0.144,0.122 0.108 0.166,0 0 0,0 0 0
UUCUCGCACG,0.366,0.156 0.126 0.0922,0 0 0,0 0 0
UUCUCGCAGG,0.248,0.191 0.0898 0.0553,0 0 0,0 0 0
UUCUCGCAUG,0.327,0.122 0.0359 0.0369,0 0 0,0 0 0
UUCUCGCCAG,0.275,0.0695 0.0719 0.111,0 0 0.0232,0 0 0
UUCUCGCCCG,0.392,0.0869 0.0180 0.111,0 0 0.0232,0 0 0.0205
UUCUCGCCGG,0.340,0.0348 0.0898 0.0369,0 0.151 0.0232,0 0 0
UUCUCGCCUG,0.366,0.156 0.108 0.0922,0.0276 0.0504 0.0232,0 0 0
UUCUCGCGAG,0.366,0.452 0.359 0.314,0.0828 0.605 1.32,0.0180 0.0404 0.103
UUCUCGCGAU,0.0261,0.0348 0.0898 0.129,0.0552 0 0,0 0 0
UUCUCGCGCG,0.261,0.156 0.126 0.0738,0 0 0,0 0 0.0205
UUCUCGCGGG,0.248,0.122 0.126 0.129,0 0 0.0232,0 0 0
UUCUCGCGUG,0.261,0.174 0.0719 0.0369,0.0276 0 0,0 0 0
UUCUCGCUAG,0.157,0.0521 0.126 0.0922,0 0 0.0232,0 0 0
UUCUCGCUCG,0.418,0.139 0.0539 0.0738,0 0 0,0 0 0
UUCUCGCUGG,0.196,0.156 0.0719 0.0922,0 0 0,0 0 0
UUCUCGCUUG,0.431,0.122 0.108 0.0738,0 0 0.0232,0 0 0
UUCUCGGAAG,0.131,0.156 0.0898 0.0922,0 0 0,0 0 0
UUCUCGGAAU,0.0261,0 0 0,0 0 0,0 0 0
UUCUCGGACG,0.327,0.747 0.593 0.479,0.0552 0.0757 0.0464,0 0 0
UUCUCGGAGG,0.261,0.104 0.162 0.0553,0 0 0,0 0 0
UUCUCGGAUG,0.183,0.0521 0.108 0.0369,0 0 0,0 0 0
UUCUCGGCAG,0.183,0.0695 0.0719 0.0738,0.0276 0 0,0 0 0
UUCUCGGCCG,0.248,0.0695 0.0719 0.0553,0 0 0.0232,0 0 0
UUCUCGGCGG,0.353,0.174 0.180 0.111,0 0 0,0 0 0
UUCUCGGCUG,0.275,0.0521 0.0719 0.0369,0 0 0.0464,0 0 0
UUCUCGGGAG,0.131,0.0869 0.0719 0.0738,0 0 0,0 0 0
UUCUCGGGCG,0.144,0.0695 0.0719 0.0553,0 0 0,0 0 0
UUCUCGGGGG,0.183,0.104 0.0719 0.148,0 0 0,0 0 0
UUCUCGGGUG,0.288,0.104 0.144 0.0369,0 0 0,0 0 0
UUCUCGGUAG,0.314,0.0348 0.0539 0.0553,0 0 0,0 0 0
UUCUCGGUCG,0.288,0.0695 0.0539 0.0553,0 0 0,0 0 0
UUCUCGGUGG,0.431,0.0869 0.0719 0.0922,0 0.0504 0,0 0 0
UUCUCGGUUG,0.235,0.0695 0.0539 0.148,0 0 0,0 0.0202 0

The last 4 entries again:

sequence	pool	IR	LM	Sys
UUCUCGGUAG	0.314	0.0348 0.0539 0.0553	0 0 0	0 0 0
UUCUCGGUCG	0.288	0.0695 0.0539 0.0553	0 0 0	0 0 0
UUCUCGGUGG	0.431	0.0869 0.0719 0.0922	0 0.0504 0	0 0 0
UUCUCGGUUG	0.235	0.0695 0.0539 0.148	0 0 0	0 0.0202 0